We go through two sequences from article PMC11701221, “WhiA transcription factor provides feedback loop between translation and energy production in a genome-reduced bacterium” (Frontiers in Microbiology, 2024).

For data set [1], the target named is T1, Mgal-WhiA (Mycoplasma gallisepticum S6) (UniProt A0A0F6CKV5).
T1 sequence (looked up, limits assumed): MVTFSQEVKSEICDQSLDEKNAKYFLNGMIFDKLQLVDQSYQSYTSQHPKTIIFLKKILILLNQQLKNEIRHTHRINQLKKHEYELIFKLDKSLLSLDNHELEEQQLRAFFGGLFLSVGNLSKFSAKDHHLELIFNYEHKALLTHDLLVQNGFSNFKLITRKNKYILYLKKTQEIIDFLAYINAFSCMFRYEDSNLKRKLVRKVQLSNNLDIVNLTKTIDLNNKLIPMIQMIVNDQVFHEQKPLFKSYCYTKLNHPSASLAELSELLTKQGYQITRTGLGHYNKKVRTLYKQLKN
Description: FRET. The settings on record: with F1 aux duplex; recombinant protein; label: 3' BHQ1 on strand 1.

Data set [2] concerns the target T1, Mgal-WhiA (Mycoplasma gallisepticum S6). As to the kind of experiment: MST. The following applies: no ATP; MST: PBS (10 mM Na phosphate pH 7.4, 140 mM NaCl, 3 mM KCl), 0.05% Tween-20, 50 mM imidazole, 50 nM duplex, 20 C; recombinant protein; label: 5' FAM (EMSA) or HEX (MST) on strand 1. (In general: In EMSA bound probe runs differently from free probe, usually more slowly.)

For data set [3] the target is unchanged. As to the kind of experiment: EMSA. The settings on record: EMSA: 20 mM carbonate pH 9.8, 6% glycerol, 37 C 10 min, gel at 10 C, recombinant protein, label: 5' FAM (EMSA) or HEX (MST) on strand 1.

Construct, isoform or probe ends are uncertain for at least one entry. For some of these results: At least one verdict rests on a figure or table, not on a statement of the authors. Tags and fusion partners may be left off the protein sequences shown.

Turning to “AAAGATTGCTGATACACCAAAA (double strand) [WhiA-Q3 (core half-site)]”, the binding result in data set [1] is “binds”.
Broadly, the Kd is a measure of binding affinity in units of concentration. Consider “AGCGATAAGTTTTACGAATTAAGTCGTTTATTATATAATA (double strand) [Negative control (plsC promoter)]”, for which the Kd in data set [2], in data set [3] (1 mM ATP) and in data set [3] (no ATP) was > 5 µM in each case.
